Results on one sequence are retold here after publication PMC3188529.

This series deals with T1, ICP4 (infected cell protein 4) (Herpes simplex virus 1 strain KOS) (UniProt P08392).
T1 sequence (looked up, limits assumed): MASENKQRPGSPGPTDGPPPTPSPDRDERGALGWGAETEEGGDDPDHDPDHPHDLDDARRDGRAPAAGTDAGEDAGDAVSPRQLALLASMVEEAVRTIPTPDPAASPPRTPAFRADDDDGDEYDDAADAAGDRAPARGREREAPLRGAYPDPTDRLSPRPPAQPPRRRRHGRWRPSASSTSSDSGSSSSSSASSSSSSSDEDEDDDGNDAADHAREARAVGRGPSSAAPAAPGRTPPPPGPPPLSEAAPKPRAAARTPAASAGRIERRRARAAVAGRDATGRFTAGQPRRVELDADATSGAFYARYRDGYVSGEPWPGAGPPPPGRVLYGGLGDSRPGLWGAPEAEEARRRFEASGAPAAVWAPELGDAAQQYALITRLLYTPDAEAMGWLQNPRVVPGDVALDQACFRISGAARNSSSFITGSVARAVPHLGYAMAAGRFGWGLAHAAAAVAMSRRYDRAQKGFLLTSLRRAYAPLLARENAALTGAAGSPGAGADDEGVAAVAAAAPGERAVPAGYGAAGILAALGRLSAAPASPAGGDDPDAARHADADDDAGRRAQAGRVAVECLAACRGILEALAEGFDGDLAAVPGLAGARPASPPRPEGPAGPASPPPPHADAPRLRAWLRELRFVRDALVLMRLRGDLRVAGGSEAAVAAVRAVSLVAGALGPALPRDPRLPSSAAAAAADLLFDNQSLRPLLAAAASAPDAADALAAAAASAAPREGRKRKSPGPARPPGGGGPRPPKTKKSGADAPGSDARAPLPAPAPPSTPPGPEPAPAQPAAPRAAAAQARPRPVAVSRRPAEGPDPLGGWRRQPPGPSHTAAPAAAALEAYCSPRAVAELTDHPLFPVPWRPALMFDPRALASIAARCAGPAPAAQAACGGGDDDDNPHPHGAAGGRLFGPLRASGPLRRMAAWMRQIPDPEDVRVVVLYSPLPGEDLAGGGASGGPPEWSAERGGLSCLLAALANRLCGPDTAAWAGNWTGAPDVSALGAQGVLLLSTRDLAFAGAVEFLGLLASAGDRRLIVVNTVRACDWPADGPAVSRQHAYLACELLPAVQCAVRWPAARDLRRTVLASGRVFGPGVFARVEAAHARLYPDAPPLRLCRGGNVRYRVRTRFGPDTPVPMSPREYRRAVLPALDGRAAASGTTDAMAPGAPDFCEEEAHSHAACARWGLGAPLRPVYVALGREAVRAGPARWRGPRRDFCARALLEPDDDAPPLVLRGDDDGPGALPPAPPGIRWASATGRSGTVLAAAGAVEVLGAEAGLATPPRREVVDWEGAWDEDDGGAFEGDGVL
Description: competition EMSA. The conditions noted are these: protein in an extract; label: unlabeled. In general terms: Mobility shift assays separate free from complexed probe on a gel.

Construct, isoform or probe ends are uncertain for at least one entry. Where cells or extracts were used, other partners may take part. At least one verdict rests on a figure or table, not on a statement of the authors. Where a protein sequence is shown, tags need not be part of it.

As for “CACTATCGTCCATACCGACCACACCGACGAA (double strand) [ICP4 consensus competitor]”, the binding result was “binds”.
